Assay results from publication PMC3166295 (PLoS ONE, 2011).

Tests used:
8H5 mAb [1] = test: Affinity determination by surface plasmon resonance (BIAcore); type: binding, murine; conditions: for Kd: read-out: Kd (dissociation constant for 8H5), BIAcore, 8H5 mAb (19 µg/ml) captured on protein A CM-5 chip, peptide at five concentrations 75.8 to 758 nM, 20 µl/min, 2 min
8H5 mAb [2] = test: Titration of phage displaying 12mer peptides on 8H5-coated microplates (phage ELISA); type: binding, murine; conditions: phage displaying the peptide; 10^13 phage serially diluted, reacted 30 min with 8H5-coated microplates, detected with anti-phage

SMILES | Kd (8H5 mAb [1]) [µM] | 8H5 titer (Tod1.5): phage dilution yielding an OD value of 1.5 (8H5 mAb [2]) | affinity for 8H5 relative to the parental p125 (8H5 mAb [1]; multiple of the affinity of p125 (discussion)) [time]
CC(C)C[C@H](NC(=O)[C@H](C)NC(=O)[C@H](CCC(N)=O)NC(=O)[C@H](CCCCN)NC(=O)[C@@H](NC(=O)[C@H](CC(C)C)NC(=O)[C@H](CCC(=O)O)NC(=O)[C@@H](NC(=O)[C@@H](N)CC(=O)O)[C@@H](C)O)[C@@H](C)O)C(=O)N[C@@H](CCCNC(=N)N)C(=O)N[C@@H](CC(C)C)C(=O)N[C@H](C(=O)O)C(C)C [III-2a] | 0.0284 | 3.27 | –
CC[C@H](C)[C@H](NC(=O)[C@@H](NC(=O)[C@H](CC(C)C)NC(=O)[C@@H]1CCCN1C(=O)[C@@H](NC(=O)[C@@H](N)CCC(=O)O)[C@@H](C)O)[C@@H](C)O)C(=O)N[C@@H](C)C(=O)NCC(=O)N[C@@H](CC(C)C)C(=O)N[C@@H](CCCCN)C(=O)N[C@@H](CC(C)C)C(=O)N[C@@H](CCCCN)C(=O)O [V-1b] | 0.00316 | 13.23 | 38
CC[C@H](C)[C@H](NC(=O)[C@@H](NC(=O)[C@H](CC(C)C)NC(=O)[C@H](CCC(=O)O)NC(=O)[C@@H](NC(=O)[C@@H](N)CCC(=O)O)[C@@H](C)O)[C@@H](C)O)C(=O)N[C@@H](C)C(=O)N[C@@H](C)C(=O)N[C@@H](CC(C)C)C(=O)N[C@@H](CCCCN)C(=O)N[C@@H](Cc1ccc(O)cc1)C(=O)N[C@H](C(=O)O)C(C)C [IV-1b] | 0.98 | 2.76 | –
CC[C@H](C)[C@H](NC(=O)[C@@H](NC(=O)[C@H](CC(C)C)NC(=O)[C@@H]1CCCN1C(=O)[C@@H](NC(=O)[C@@H](N)CC(=O)O)[C@@H](C)O)[C@@H](C)O)C(=O)N[C@@H](C)C(=O)NCC(=O)N[C@@H](CC(C)C)C(=O)N[C@@H](CCCCN)C(=O)N[C@@H](CC(C)C)C(=O)N[C@H](C(=O)O)C(C)C [II-1c] | 0.0115 | 7.07 | –
